Pooled drug test results. Numbers come from NIAID ChemDB, via PubChem.

Common to all: whole-cell or culture tests; species: Mycobacterium kansasii; measure: MIC

Lines come from different laboratories, so protocols vary.

smiles,read by,strain,setting,value
O=C(N[C@@H](Cc1ccccc1)c1cnc(-c2ccccc2)[nH]1)OCc1ccccc1,-,My 6509/96,7 d,>250 µM
O=C(Oc1cc(Cl)ccc1C(=O)Nc1ccc(Br)cc1)c1ccccc1,broth dilution,6509/96,21 d,4 µM
Cc1ccc2oc(=S)n(-c3ccc(Cl)cc3)c(=S)c2c1,-,6509/96,21 d,8 µM
O=C(Oc1cc(Cl)ccc1C(=O)Nc1ccc(Cl)cc1)c1ccccc1,broth dilution,6509/96,14 d,2 µM
O=C(Nc1ccc(Cl)c(Cl)c1)c1ccc(Cl)cc1OS(=O)(=O)c1ccccc1,-,6509/96,21 d,8 µM
O=C(OCc1ccccc1)N1CCC[C@H]1c1cnc(-c2ccc([N+](=O)[O-])cc2)[nH]1,-,My 6509/96,14 d,62.5 µM
O=C(Nc1ccc(Cl)c(Cl)c1)c1cc(Cl)ccc1OS(=O)(=O)c1ccccc1,-,6509/96,14 d,8 µM
O=C(Oc1cc(Cl)ccc1C(=O)Nc1ccc(F)cc1)c1ccccc1,broth dilution,6509/96,7 d,4 µM
O=C(Oc1ccc(Cl)cc1C(=O)Nc1ccc(Br)cc1)c1cnccn1,-,235/80,14 d,2 µM
O=C(Nc1cccc(Br)c1)c1ccc(Cl)cc1OS(=O)(=O)c1ccccc1,-,6509/96,14 d,125 µM
O=C(Oc1cc(Cl)ccc1C(=O)Nc1cccc(Cl)c1)c1ccccc1,broth dilution,235/80,7 d,2 µM
CC(C)C[C@H](NC(=O)OCc1ccccc1)c1cnc(-c2ccccc2)[nH]1,-,My 6509/96,14 d,>125 µM
N/C(=N\N=C\c1ccccc1)SCc1ccc(Br)cc1,broth dilution,ATCC 12478,14 d,62.5 µM
O=C(Nc1cccc(F)c1)c1cc(Cl)ccc1O,broth dilution,235/80,21 d,8 µM
Cc1ccc(-n2c(=O)oc3ccc(F)cc3c2=S)cc1,-,6509/96,21 d,2 µM
O=C(Nc1ccc(Br)cc1)c1cc(Cl)ccc1OS(=O)(=O)c1ccccc1,-,6509/96,14 d,8 µM
Cc1ccc(-n2c(=S)oc3ccc(F)cc3c2=S)cc1,-,My 235/80,21 d,8 µM
Nc1ccc(C(=O)O)c(O)c1,-,235/80,14 d,1000 µM
COc1ccc2oc(=O)n(-c3ccc(C(F)(F)F)cc3)c(=S)c2c1,-,6509/96,14 d,32 µM
N/C(=N\N=C\c1ccccc1O)SCc1ccc(Br)cc1,broth dilution,6509/96,14 d,32 µM
O=C(Oc1ccc(Cl)cc1)c1cnccn1,-,6509/96,14 d,250 µM
N/C(=N\N=C\c1ccccc1O)SCc1cccc(Cl)c1,broth dilution,6509/96,21 d,32 µM
O=C(Nc1ccc(F)cc1)c1ccc(Cl)cc1OS(=O)(=O)c1ccccc1,-,6509/96,21 d,16 µM
CC[C@@H](C)[C@H](NC(=O)OCc1ccccc1)c1cnc(-c2ccccc2)[nH]1,-,My 6509/96,7 d,32 µM
N/C(=N\N=C\c1cc(Cl)ccc1O)SCc1cccc(Cl)c1,broth dilution,ATCC 12478,21 d,32 µM
O=C(Oc1ccc(Cl)cc1C(=O)Nc1cccc(Cl)c1)c1ccccc1,broth dilution,6509/96,21 d,8 µM
O=c1oc2ccc(Br)cc2c(=S)n1-c1ccc(Cl)c(Cl)c1,-,My 235/80,14 d,4 µM
O=C(Oc1ccc(Cl)cc1C(=O)Nc1ccc(Cl)c(Cl)c1)c1cnccn1,-,235/80,7 d,2 µM
O=C(OCc1ccccc1)N1CCC[C@H]1c1cnc(-c2ccccc2)[nH]1,-,My 235/80,14 d,62.5 µM
COc1ccc2oc(=O)n(-c3cccc(Cl)c3)c(=S)c2c1,-,My 235/80,21 d,32 µM
C[C@H](NC(=O)OCc1ccccc1)c1cnc(-c2ccc([N+](=O)[O-])cc2)[nH]1,-,My 6509/96,21 d,>125 µM
O=c1oc2ccc(F)cc2c(=S)n1-c1cccc(F)c1,-,6509/96,14 d,16 µM
O=C(Oc1cc(Cl)ccc1C(=O)Nc1ccc(Cl)cc1)c1cnccn1,-,235/80,14 d,2 µM

A second listing of 5 rows from above:

smiles	read by	strain	setting	value
O=C(Oc1cc(Cl)ccc1C(=O)Nc1ccc(Cl)cc1)c1ccccc1	broth dilution	6509/96	14 d	2 µM
O=C(Nc1ccc(F)cc1)c1ccc(Cl)cc1OS(=O)(=O)c1ccccc1	-	6509/96	21 d	16 µM
O=C(Oc1cc(Cl)ccc1C(=O)Nc1ccc(Cl)cc1)c1cnccn1	-	235/80	14 d	2 µM
COc1ccc2oc(=O)n(-c3cccc(Cl)c3)c(=S)c2c1	-	My 235/80	21 d	32 µM
C[C@H](NC(=O)OCc1ccccc1)c1cnc(-c2ccc([N+](=O)[O-])cc2)[nH]1	-	My 6509/96	21 d	>125 µM

An empty or dashed field is not shown.